Pooled drug test results. Numbers come from NIAID ChemDB, via PubChem.

All rows: cytotoxicity tests; cell line: MT-4; measure: CC50

Blank or dashed fields: not listed here. Neighbouring rows are from separate reports. CCn is the concentration with n% toxicity to the cells.

SMILES	method	value
C=C(C)[C@@H]1CC[C@]2(C(=O)NCCCCCNC(C)=O)CC[C@]3(C)[C@H](CC[C@@H]4[C@@]5(C)CC[C@H](OC(=O)CC(C)(C)C(=O)O)C(C)(C)[C@@H]5CC[C@]43C)[C@@H]12	-	9 µM
Cc1ccc(C(C)S(=O)(=O)c2c(C)ccc[n+]2[O-])c(C)c1	MTT	60 µg/mL
CC(C)c1c(Cc2ccccc2)n2c(nc1=O)SCC2CBr	-	<100 µM
CCCc1c(Cc2ccccc2)n(COC/C=C/c2ccccc2)c(=O)[nH]c1=O	MTT	29 µM
COc1cccc2c1nc(-c1ccccc1F)n2Cc1cccs1	-	12.04 µg/mL
CCn1cc(C(=O)O)c(=O)c2cc(F)c(N3CCN(CN4C(=O)C(=Nc5ccc(S(=O)(=O)Nc6ncccn6)cc5)c5cc(Br)ccc54)CC3)cc21	-	61.8 µg/mL
C=Cn1cc(C(=O)O)c(=O)c2ccc(N3CCN(c4ccccn4)CC3)cc21	MTT	1.48 µM
O=S(=O)(O)c1cc(S(=O)(=O)O)c2c(Nc3ccnc4cc(Cl)ccc34)ccc(S(=O)(=O)O)c2c1	-	>500 µg/mL
CC(C)CN(C[C@@H](O)[C@H](Cc1ccccc1)NC(=O)O[C@H]1CO[C@H]2OCC[C@H]21)S(=O)(=O)c1ccc(-c2coc(-c3ccc(C#N)cc3)n2)cc1	MTT	>32.4 µM
Cc1cccc(N2C(=O)CSC2c2c(C(F)(F)F)ccc(Cl)c2F)n1	-	121.5 µM
Cc1cn([C@H]2C=C[C@@H](CO)O2)c(=O)n(CCCN2CCN(CCNC(=S)Nc3ccc(Br)cn3)CC2)c1=O	MTT	>100 µM
COC(=O)C1C(O)C[C@@]2(O)CC(O)C(O)CCC(O)CC(O)CC(O)CC(=O)O[C@@H](C)[C@H](C)[C@H](O)[C@@H](C)/C=C/C=C/C=C/C=C/C=C/C=C/C=C/[C@H](O[C@@H]3O[C@H](C)[C@@H](O)[C@H](NC(=NCC[N+]4(C)CCOCC4)NC4CCCCC4)[C@@H]3O)CC1O2	-	>20 µg/mL
CC(C)OC(=O)[C@H](C)NP(=O)(OC[C@H]1C=C[C@@H](n2cnc3c(N)ncnc32)C1)Oc1ccccc1	MTS	100 µM
CCCc1c(Cc2cc(C)cc(C)c2)n(COC/C=C/c2ccccc2)c(=O)[nH]c1=O	MTT	31 µM
COc1cccc2c1nc(-c1ccccc1F)n2Cc1cccc2ccccc12	-	>5 µg/mL
COc1ccc(C)cc1CS(=O)(=O)c1cccc[n+]1[O-]	MTT	≥100 µg/mL
Cc1cc(-c2nc(-c3ccc(S(=O)(=O)N(CC(C)C)C[C@@H](O)[C@H](Cc4ccccc4)NC(=O)O[C@H]4CO[C@H]5OCC[C@H]54)cc3)co2)no1	MTT	>32.4 µM
Fc1cccc(F)c1CCNC(=S)Nc1ncccn1	-	>5 µg/mL
COc1cccc2c1nc(-c1ccccc1F)n2Cc1ccco1	-	14.2 µg/mL
Fc1cccc(F)c1CCNC(=S)Nc1ccccn1	-	>5 µg/mL
CCc1c(Cc2cc(C)cc(C)c2)n(COC2C=CCCC2)c(=O)[nH]c1=O	MTT	31 µM
CC(C)CN(C[C@@H](O)[C@H](Cc1ccccc1)NC(=O)O[C@H]1CO[C@H]2OCC[C@H]21)S(=O)(=O)c1ccc(-c2cnc(NC(=O)O[C@H]3CO[C@H]4OCC[C@H]43)[nH]2)cc1	MTT	>100 µM
N#C[C@]1(CO)O[C@@H](n2cnc3c(N)nc(N)nc32)C[C@@H]1O	-	>0.034 µM
Cc1ccc(C)c(CSc2c(Cl)ccc[n+]2[O-])c1	MTT	13 µg/mL
C=Cn1cc(C(=O)O)c(=O)c2ccc(N3CCN(c4cccc(C(F)(F)F)c4)CC3)cc21	MTT	5.97 µM
CCn1cc(C(=O)O)c(=O)c2cc(F)c(N3CCN(CN4C(=O)C(=Nc5ccc(S(=O)(=O)Nc6ncccn6)cc5)c5cc(Cl)ccc54)CC3)cc21	-	63.1 µg/mL
O=C1CSC(c2c(F)cccc2Cl)N1Cc1cccs1	-	41.58 µM
C#CCOC(=O)c1cccn1S(=O)(=O)c1cc(Cl)ccc1N	MTT	118 µM
Cc1cn([C@H]2C[C@H](N=[N+]=[N-])[C@@H](CO)O2)c(=O)[nH]c1=O	luminescence	10 µM
CCOC(=O)CCc1nc(-c2ccc(S(=O)(=O)N(CC(C)C)C[C@@H](O)[C@H](Cc3ccccc3)NC(=O)O[C@H]3CO[C@H]4OCC[C@H]43)cc2)co1	MTT	>100 µM
O=c1ccn([C@H]2C=C[C@@H](CO)O2)c(=O)n1CCCCN1CCN(CCNC(=S)Nc2ccc(Br)cn2)CC1	MTT	>100 µM
Cc1cc(C)c(-n2c(SCC(=O)Nc3ccc(C)cc3Br)nc3cnccc32)c(C)c1	MTT	5.9 µM
CCCc1c(Cc2cc(C)cc(C)c2)n(COCC2CC=CCC2)c(=O)[nH]c1=O	MTT	30 µM
CCCCOC(=O)c1cccn1S(=O)(=O)c1cc(Cl)ccc1[N+](=O)[O-]	MTT	22 µM
Cc1cc(C)c(-n2c(SCC(=O)Nc3ccc(S(N)(=O)=O)cc3Br)nc3cccnc32)c(C)c1	MTT	22 µM
CCOCn1c(Cc2ccccc2)c(C(C)C)c(=O)[nH]c1=O	MTT	>100 µM
CCc1c(Cc2cc(C)cc(C)c2)nc2n(c1=O)C(OCCO)CS2	-	>100 µM
Nc1ccn([C@H]2OC[C@@H](CO)[C@H]2O)c(=O)n1	-	>100 µM
NC(=O)c1[nH]c2ccc(Cl)cc2c1S(=O)(=O)C1CCCCC1	microscopy	>10 µM
CC(=O)Nc1nc(-c2ccc(S(=O)(=O)N(CC(C)C)C[C@@H](O)[C@H](Cc3ccccc3)NC(=O)O[C@H]3CO[C@H]4OCC[C@H]43)cc2)cs1	MTT	77.6 µM
COc1cccc(OC)c1C1SCC(=O)N1c1nccc(C)n1	-	231.2 µM
CCc1c(Cc2cc(C)cc(C)c2)n(COCCF)c(=O)[nH]c1=O	MTT	>100 µM
CCn1cc(C(=O)O)c(=O)c2cc(F)c(N3CCN(CN4C(=O)/C(=N\c5ncc(Cc6cc(OC)c(OC)c(OC)c6)c(N)n5)c5ccccc54)CC3)cc21	-	66.5 µg/mL
COc1cccc(OC)c1C1SCC(=O)N1c1cccc(Br)n1	-	>316.2 µM
Fc1cccc(F)c1CCNC(=S)Nc1ccc(Br)c(Cl)n1	-	>25 µg/mL
O=C(Nc1cccc(C(=O)Nc2ccc(S(=O)(=O)O)c3cc(S(=O)(=O)O)cc(S(=O)(=O)O)c23)c1)Nc1cccc(C(=O)Nc2ccc(S(=O)(=O)O)c3cc(S(=O)(=O)O)cc(S(=O)(=O)O)c23)c1	-	>50 µg/mL
Cc1cccnc1NC(=S)NCCc1c(F)cccc1F	-	>25 µg/mL
C=C(C)[C@@H]1CC[C@]2(C(=O)NCC(=O)N[C@@H](CC(C)C)C(=O)O)CC[C@]3(C)[C@H](CC[C@@H]4[C@@]5(C)CC[C@H](OC(=O)CC(C)(C)C(=O)O)C(C)(C)[C@@H]5CC[C@]43C)[C@@H]12	-	>10 µM
COc1cccc2c1nc(-c1ccccc1F)n2Cc1c(C)cccc1C	-	>25 µg/mL
Cc1ccc(C)c(CS(=O)(=O)c2ccccn2)c1	MTT	46 µg/mL
Cc1ccnc(NC(=S)NCCc2c(F)cccc2F)c1	-	>5 µg/mL
COCCOC(=O)c1cccn1S(=O)(=O)c1cc(Cl)ccc1N	MTT	>200 µM
COC1=NC=C[C@@H]2O[C@@H]3SC(OC)=NC=C[C@@H]3O[C@@H]2S1	MTT / absorbance	44 µM
CCn1cc(C(=O)O)c(=O)c2cc(F)c(N3CCN(CN4C(=O)C(=Nc5ccc(S(=O)(=O)Nc6ncnc(OC)c6OC)cc5)c5cc(Br)ccc54)CC3)cc21	-	33.9 µg/mL
CCc1c(Cc2cc(C)cc(C)c2)n(Cc2ccc(C#CCF)cc2)c(=O)[nH]c1=O	MTT	2 µM
Cc1nc(NC(=S)NCCc2c(F)cccc2F)ccc1Br	-	>5 µg/mL
COc1cc2c(cc1Cc1cccc(Cl)c1F)c(=O)c(C(=O)O)cn2[C@H](CO)C(C)C	luminescence	4.409 µM
CCc1c(Cc2cccc3ccccc23)n2c(nc1=O)SCC2OCCO	-	>100 µM
Cc1ccnc(N2C(=O)CSC2c2c(F)cccc2F)n1	-	>406.7 µM
Cc1cccc(CS(=O)(=O)c2cccc[n+]2[O-])c1	MTT	30 µg/mL
CCOC(=O)c1[nH]c2ccc(Cl)cc2c1SCC1CCC1	microscopy	>10 µM
O=c1ccn([C@H]2C=C[C@@H](CO)O2)c(=O)n1CCCN1CCN(CCNC(=S)Nc2ccc(Br)cn2)CC1	MTT	>100 µM
C=C(C)[C@@H]1CC[C@]2(C(=O)O)CC[C@]3(C)[C@H](CC[C@@H]4[C@@]5(C)CC[C@H](OC(=O)CC(C)(C)C(=O)O)C(C)(C)[C@@H]5CC[C@]43C)[C@@H]12	-	7.5 µM
CCOC(CSc1nc(Cc2ccccc2)c(CC)c(=O)[nH]1)OCC	-	<100 µM
COC(=O)C(C)(C)NP(=O)(OC[C@H]1C=C[C@@H](n2ccc3c(N)ncnc32)C1)Oc1ccccc1	MTS	>10 µM
Fc1cccc(NC(=S)NCCc2c(F)cccc2F)n1	-	>25 µg/mL
COc1cccc(-c2nc(-c3ccc(S(=O)(=O)N(CC(C)C)C[C@@H](O)[C@H](Cc4ccccc4)NC(=O)O[C@H]4CO[C@H]5OCC[C@H]54)cc3)co2)c1	MTT	>32.4 µM
COc1cccc(OC)c1C1SCC(=O)N1c1cc(C)cc(C)n1	-	310 µM
CCn1cc(C(=O)O)c(=O)c2cc(F)c(N3CCN(CN4C(=O)/C(=N\c5ncc(Cc6cc(OC)c(OC)c(OC)c6)c(N)n5)c5cc(Br)ccc54)CC3)cc21	-	54.7 µg/mL
CC(=O)Nn1cc(C(=O)O)c(=O)c2cc(N)c(N3CCN(c4ccccn4)CC3)cc21	MTT	>295.9 µM
COC(=O)c1ccc(CN2CCC(Nc3nc(Oc4c(C)cc(C#N)cc4C)c4ccsc4n3)CC2)cc1	MTT	>227 µM
CCc1c(Cc2cccc3ccccc23)nc2n(c1=O)C(OCCO)CS2	-	<100 µM
CCOC(=O)c1[nH]c2ccc(Cl)cc2c1S(=O)(=O)CCC1CC1	microscopy	>10 µM
COC(=O)[C@H](Cc1ccccc1)NP(=O)(OC[C@@H]1C=C[C@H](n2ccc3c(N)ncnc32)C1)Oc1ccccc1	MTS	42 µM
COc1cccc(OC)c1C1SCC(=O)N1c1cccc(C)c1	-	208.7 µM
CCc1c(Cc2cc(C)cc(C)c2)n(COCCO)c(=O)[nH]c1=O	MTT	>100 µM
O=C(Nc1cccc(C(=O)Nc2ccc(C(=O)Nc3cc(S(=O)(=O)O)cc4cc(S(=O)(=O)O)cc(S(=O)(=O)O)c34)cc2)c1)Nc1cccc(C(=O)Nc2ccc(C(=O)Nc3cc(S(=O)(=O)O)cc4cc(S(=O)(=O)O)cc(S(=O)(=O)O)c34)cc2)c1	-	>50 µg/mL
Cn1cccc1CN1C(=O)CSC1c1c(F)cccc1F	-	146 µM
Nc1ncnc2c1ccn2[C@H]1CC[C@@H](CO)C1	MTS	>500 µM
C=Cn1cc(C(=O)O)c(=O)c2ccc(N3CCN(c4nc5ccccc5s4)CC3)cc21	MTT	0.05 µM
Nc1ccc(Cl)cc1S(=O)(=O)n1cccc1C(=O)Oc1ccccc1	MTT	24 µM
CCc1c(Cc2cc(C)cc(C)c2)n(COC/C=C/c2ccccc2)c(=O)[nH]c1=O	MTT	32 µM
CCN(CC)C(=O)c1cccn1S(=O)(=O)c1cc(Cl)ccc1N	MTT	146 µM
Cn1cccc1CN1C(=O)CSC1c1c(F)cccc1Cl	-	69.37 µM
Nc1cc2c(=O)c(C(=O)O)cn(N)c2cc1N1CCN(c2nc3ccccc3s2)CC1	MTT	0.17 µM
Cc1cn([C@H]2C=C[C@@H](CO)O2)c(=O)n(CCCCN2CCN(CCNC(=S)Nc3ccc(Br)cn3)CC2)c1=O	MTT	>100 µM
Nn1cc(C(=O)O)c(=O)c2ccc(N3CCN(c4ccccn4)CC3)cc21	MTT	>342 µM
Cc1cc(C)c(-n2c(SCC(=O)Nc3ccccc3Cl)nc3cnccc32)c(C)c1	MTT	19 µM
NC(=O)c1cccn1S(=O)(=O)c1cc(Cl)ccc1N	MTT	200 µM
O=C(Nc1ccc(S(=O)(=O)O)c2cc(S(=O)(=O)O)cc(S(=O)(=O)O)c12)c1ccc([N+](=O)[O-])o1	-	>500 µg/mL

For reference, 8 entries again:

SMILES	method	value
CCOC(=O)c1[nH]c2ccc(Cl)cc2c1S(=O)(=O)CCC1CC1	microscopy	>10 µM
COc1cccc(OC)c1C1SCC(=O)N1c1cccc(C)c1	-	208.7 µM
CC(C)CN(C[C@@H](O)[C@H](Cc1ccccc1)NC(=O)O[C@H]1CO[C@H]2OCC[C@H]21)S(=O)(=O)c1ccc(-c2cnc(NC(=O)O[C@H]3CO[C@H]4OCC[C@H]43)[nH]2)cc1	MTT	>100 µM
CCCc1c(Cc2cc(C)cc(C)c2)n(COC/C=C/c2ccccc2)c(=O)[nH]c1=O	MTT	31 µM
NC(=O)c1[nH]c2ccc(Cl)cc2c1S(=O)(=O)C1CCCCC1	microscopy	>10 µM
Nc1ncnc2c1ccn2[C@H]1CC[C@@H](CO)C1	MTS	>500 µM
Cc1cc(C)c(-n2c(SCC(=O)Nc3ccccc3Cl)nc3cnccc32)c(C)c1	MTT	19 µM
COc1cccc(OC)c1C1SCC(=O)N1c1nccc(C)n1	-	231.2 µM